One compound from patent US10947274B1 (priority 2018, dated 2021) can be followed below.

Chains of the proteins cited; added tags and fusions are not shown. Residues count along the entry.
UniProt Q9GZZ6, 25-450 limits assumed: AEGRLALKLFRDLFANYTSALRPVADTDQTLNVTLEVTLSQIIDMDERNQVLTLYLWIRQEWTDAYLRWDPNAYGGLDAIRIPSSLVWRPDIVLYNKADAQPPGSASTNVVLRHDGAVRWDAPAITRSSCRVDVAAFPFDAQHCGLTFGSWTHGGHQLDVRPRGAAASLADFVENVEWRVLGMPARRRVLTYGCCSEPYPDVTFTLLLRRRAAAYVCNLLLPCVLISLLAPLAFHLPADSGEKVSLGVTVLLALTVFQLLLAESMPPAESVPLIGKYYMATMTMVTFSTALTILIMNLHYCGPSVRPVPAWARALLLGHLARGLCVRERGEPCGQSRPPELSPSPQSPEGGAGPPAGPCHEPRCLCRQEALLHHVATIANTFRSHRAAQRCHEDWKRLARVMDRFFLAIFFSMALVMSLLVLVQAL
UniProt Q9UGM1, 26-479 limits assumed: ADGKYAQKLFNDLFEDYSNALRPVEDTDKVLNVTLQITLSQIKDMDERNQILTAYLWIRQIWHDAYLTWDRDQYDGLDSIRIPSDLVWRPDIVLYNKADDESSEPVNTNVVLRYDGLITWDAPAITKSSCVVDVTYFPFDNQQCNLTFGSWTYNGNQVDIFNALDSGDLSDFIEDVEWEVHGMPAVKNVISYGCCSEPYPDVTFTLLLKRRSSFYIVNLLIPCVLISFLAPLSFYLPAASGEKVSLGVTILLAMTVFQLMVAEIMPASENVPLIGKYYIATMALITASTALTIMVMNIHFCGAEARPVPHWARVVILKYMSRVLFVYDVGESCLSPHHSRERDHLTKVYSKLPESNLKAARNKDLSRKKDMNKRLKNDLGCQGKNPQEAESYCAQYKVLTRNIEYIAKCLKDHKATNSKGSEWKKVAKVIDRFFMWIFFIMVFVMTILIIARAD

SMILES strings stand for the structures. pIC50: −log10 of the molar value. This is a selection: effects in other tests are not listed, and their absence says nothing.

The target of this assay is human α9α10 nAChR (Homo sapiens, UniProt Q9GZZ6+Q9UGM1). As to the kind of experiment: Block of acetylcholine response at cloned human α9α10 nAChR expressed in Xenopus oocytes (voltage clamp). The note with it: Table 1.

As for `C[C@@H](O)[C@@H]1NC(=O)[C@H]2NC(=O)[C@@H](NC(=O)CN)CSSC[C@H](NC(=O)[C@H](CCCNC(=N)N)NC(=O)[C@@H]3CCCN3C(=O)[C@H](CC(=O)O)NC1=O)C(=O)N[C@@H](CCCNC(N)=O)C(=O)N[C@@H](Cc1ccc(O)c(I)c1)C(=O)N[C@@H](CCC(N)=O)C(=O)N[C@H](C(=O)N[C@H](Cc1ccc(O)cc1)C(=O)O)CSSC2(C)C`, the pIC50 was 8.34.
